From US7030150B2, “Benzimidazole compounds and antiviral uses thereof” (Trimeris, Inc., priority 2001, dated 2006)

Test system: RSV
Test: RSV plaque reduction (PRA) / syncytia formation antiviral assay in Hep2 cells
Format: cell-based, Respiratory Syncytial Virus
Conditions: for SI: ratio CC50/IC50, Table 8; for Selective Index: ratio CC50/IC50, Tables 1-7

Question: `CN1CCN(Cc2ccc3c(c2)nc(CN2CCOCC2)n3Cc2nc3ccccc3[nH]2)CC1` [compound 258] was tested. Which SI did it give?
Answer: 13

Question: Which “Selective Index” value does the source give for `CC(C)NCc1nc2ccccc2n1Cc1nc2ccccc2[nH]1` [compound 152] here?
Answer: 2128

Question: With `CN(Cc1ccccc1)Cc1ccc2c(c1)nc(CN1CCOCC1)n2Cc1nc2ccccc2[nH]1` [compound 259] as the compound, how does the SI read?
Answer: 13

Question: `c1coc(CNCc2nc3ccccc3n2Cc2nc3ccccc3[nH]2)c1` [compound 154] was tested. Which “Selective Index” value did it give?
Answer: 50

Question: For `FC(F)(F)Oc1cccc(CNCc2nc3ccccc3n2Cc2nc3ccccc3[nH]2)c1` [compound 127], which “Selective Index” value is on record?
Answer: 53

Question: `c1ccc2nc(Cn3c(CN4CCCCC4)nc4ccccc43)ccc2c1` [compound 50] was tested. Which “Selective Index” value did it give?
Answer: 14.04

Question: How did the “Selective Index” value turn out when `Fc1cc2c(c(Cn3c(CN4CCCCC4)nc4ccccc43)c1)OCOC2` [compound 59] was run?
Answer: 71

Question: With `O=c1[nH]ccn1CCNCc1nc2ccccc2n1Cc1nc2ccccc2[nH]1` [compound 166] as the compound, how does the “Selective Index” value read?
Answer: 154

Question: Which “Selective Index” value does the source give for `COc1cc(Cn2c(CN(C(C)C)C3CCCCC3)nc3ccccc32)cc(OC)c1` [compound 3] here?
Answer: 10.96

Question: Which SI does the source give for `CC(C)N(Cc1ccc2c(c1)nc(CN1CCOCC1)n2Cc1nc2ccccc2[nH]1)C(C)C` [compound 242] here?
Answer: 13

Question: How did the “Selective Index” value turn out when `CSc1ccc(Cn2c(CN3CCCCC3)nc3ccccc32)cc1` [compound 61] was run?
Answer: 15

Question: Which “Selective Index” value does the source give for `c1ccc(Oc2cccc(Cn3c(CN4CCCCC4)nc4ccccc43)c2)cc1` [compound 74] here?
Answer: 7

Question: Which SI does the source give for `COC(=O)c1ccc2c(c1)nc(CN1CCOCC1)n2Cc1nc2ccccc2[nH]1.Cl` [compound 249] here?
Answer: 650

Question: For `CC(C)N(Cc1nc2ccccc2n1Cc1c2ccccc2nc2ccccc12)C1CCCCC1` [compound 10], which “Selective Index” value is on record?
Answer: 59

Question: Which “Selective Index” value does the source give for `COc1ccc(N(C)Cc2nc3ccccc3n2Cc2nc3ccccc3[nH]2)cc1` [compound 110] here?
Answer: 62.5

Question: Which “Selective Index” value does the source give for `CN(C)CCCNCc1nc2ccccc2n1Cc1nc2ccccc2[nH]1` [compound 174] here?
Answer: 67

Question: Which “Selective Index” value does the source give for `CN(CCc1ccccn1)Cc1nc2ccccc2n1Cc1nc2ccccc2[nH]1` [compound 98] here?
Answer: 333.3

Question: How did the “Selective Index” value turn out when `CN(C)CCCN(CCCN(C)C)Cc1nc2ccccc2n1Cc1nc2ccccc2[nH]1` [compound 101] was run?
Answer: 125

Question: For `CN1CCC(N(C)Cc2nc3ccccc3n2Cc2nc3ccccc3[nH]2)CC1` [compound 80], which “Selective Index” value is on record?
Answer: 7.3

Question: `O=C(OCc1ccccc1)N1CCN(Cc2nc3ccccc3n2Cc2nc3ccccc3[nH]2)CC1` [compound 208] was tested. Which “Selective Index” value did it give?
Answer: 833.3

Question: For `COCCN(C)Cc1ccc2c(c1)nc(CN1CCOCC1)n2Cc1nc2ccccc2[nH]1` [compound 251], which SI is on record?
Answer: 13

Question: For `COc1cccc(CNCc2nc3ccccc3n2Cc2nc3ccccc3[nH]2)c1` [compound 134], which “Selective Index” value is on record?
Answer: 244

Question: How did the “Selective Index” value turn out when `c1ccc2[nH]c(Cn3c(CNC4CCCC4)nc4ccccc43)nc2c1` [compound 177] was run?
Answer: 3333

Question: Which “Selective Index” value does the source give for `c1ccc2[nH]c(Cn3c(CNCCCn4ccnc4)nc4ccccc43)nc2c1` [compound 136] here?
Answer: 132

Question: `c1ccc2[nH]c(Cn3c(CN4CCCCC4)nc4ccccc43)nc2c1` [compound 79] was tested. Which “Selective Index” value did it give?
Answer: 5000

Question: With `O=C(O)C(F)(F)F.O=C(c1ccco1)N1CCN(Cc2ccc3c(c2)nc(CN2CCOCC2)n3Cc2nc3ccccc3[nH]2)CC1` [compound 256] as the compound, how does the SI read?
Answer: 71

Question: Which “Selective Index” value does the source give for `Cc1nc(Cn2c(CN3CCCCC3)nc3ccccc32)cs1` [compound 51] here?
Answer: 24.39

Question: With `CC(c1ccccc1)N(C)Cc1nc2ccccc2n1Cc1nc2ccccc2[nH]1` (stereo not shown) [compound 86] as the compound, how does the “Selective Index” value read?
Answer: 151.2

Question: Which “Selective Index” value does the source give for `CC1C=CC(C)N1Cc1nc2ccccc2n1Cc1nc2ccccc2[nH]1` (stereo not shown) [compound 207] here?
Answer: 526.3

Question: With `O=C(OCc1ccccc1)N1CCN(Cc2nc3ccccc3n2Cc2nc3ccccc3[nH]2)CC1` [compound 221] as the compound, how does the “Selective Index” value read?
Answer: 4347.8

Question: How did the “Selective Index” value turn out when `Fc1cc2c(c(Cn3c(CN4CCCCC4)nc4ccccc43)c1)OCOC2` [compound 73] was run?
Answer: 56

Question: `O=C1c2ccccc2C(=O)N1Cc1nc2ccccc2n1Cc1nc2ccccc2[nH]1` [compound 226] was tested. Which “Selective Index” value did it give?
Answer: 6.3

Question: Which “Selective Index” value does the source give for `CSc1ccc(Cn2c(CN(C(C)C)C3CCCCC3)nc3ccccc32)cc1` [compound 14] here?
Answer: 19

Question: With `Fc1ccc(F)c(CNCc2nc3ccccc3n2Cc2nc3ccccc3[nH]2)c1` [compound 114] as the compound, how does the “Selective Index” value read?
Answer: 667

Question: How did the “Selective Index” value turn out when `CCN(Cc1ccncc1)Cc1nc2ccccc2n1Cc1nc2ccccc2[nH]1` [compound 99] was run?
Answer: 14.5

Question: `O=C(OCc1ccccc1)N1CCCCN(Cc2nc3ccccc3n2Cc2nc3ccccc3[nH]2)CC1` [compound 232] was tested. Which “Selective Index” value did it give?
Answer: 123.5

Question: `CC(C)CCN(CCC(C)C)Cc1nc2ccccc2n1Cc1nc2ccccc2[nH]1` [compound 87] was tested. Which “Selective Index” value did it give?
Answer: 666.7

Question: Which “Selective Index” value does the source give for `c1ccc2[nH]c(Cn3c(CNCCCN4CCOCC4)nc4ccccc43)nc2c1` [compound 124] here?
Answer: 250

Question: How did the “Selective Index” value turn out when `c1ccc2[nH]c(Cn3c(CN4CCC5CCCCC5C4)nc4ccccc43)nc2c1` (stereo not shown) [compound 214] was run?
Answer: 12.5

Question: For `CCCCCCCCN(CCCCCCCC)Cc1ccc2c(c1)nc(CN1CCOCC1)n2Cc1nc2ccccc2[nH]1.O=C(O)C(F)(F)F` [compound 244], which SI is on record?
Answer: 1.4

Question: How did the SI turn out when `NC(=O)c1ccc2c(c1)nc(CN1CCOCC1)n2Cc1nc2ccccc2[nH]1` [compound 247] was run?
Answer: 45

Question: Which “Selective Index” value does the source give for `Cc1nc(Cn2c(CN(Cc3ccccc3)C(C)C)nc3ccccc32)cs1` [compound 40] here?
Answer: 13.44

Question: Which “Selective Index” value does the source give for `CCCN(Cc1nc2ccccc2n1Cc1csc(C)n1)CC1CC1` [compound 21] here?
Answer: 23.36
